We go through 1 substance from patent US20130071428A1.

The target in experiment [1] is F I G I T E L K K L E S K I N K V F Z Z O (Clostridium tetani).
Experiment [2] has as its target F I G I T E L K K L E S K I N K V Z Z O (Clostridium tetani).
Experiment [3] has as its target F I G I T E L K K L E S K I N K Z Z O (Clostridium tetani).
For experiment [4], the target named is F I G I T E L K K L E S K I N Z Z O (Clostridium tetani).
Experiment [5] concerns the target F I G I T E L K K L E S K I Z Z O (Clostridium tetani).
The target of experiment [6] is peptide β-32 (Clostridium tetani).
Experiment [7] has the same target. Description: Tettox ELISA, biotinylated peptide on streptavidin plate.
For experiment [8] the target is unchanged. As to the kind of experiment: Tettox ELISA; same synthesis number reprinted under 'Without linker'. (ELISA stands for enzyme-linked immunosorbent assay.)

As to TetaQuin® (antibody), the OD (column without a head) was 1.16 OD in experiment [1]; 0.68 OD in experiment [2]; 0.65 OD in experiment [3]; 0.64 OD in experiment [4]; 0.79 OD in experiment [5]; 1.16 OD in experiment [6]. Besides, the OD in experiment [7] and in experiment [8] was 1.3 OD each time.
